A mixed list of measured activities; the numbers were collected in NIAID ChemDB.

Common to all: target-level tests; agent: HIV-1; protein: Protease

An empty or dashed field is not shown. Rows are shuffled and stem from different studies. ICn: concentration for n% inhibition.

structure,measure,mutations,method,conditions,result
CC(C)C[C@H](NC(=O)[C@@H](NC(=O)[C@H](Cc1c[nH]c2ccccc12)NC(=O)C(F)(F)F)C(C)C)[C@@H](O)CC(=O)N[C@H](C(=O)N[C@H](C(=O)OCc1ccccc1)C(C)C)C(C)C,IC50,,fluorescence,,0.03 µM
COc1ccc(S(=O)(=O)N(CC(C)C)C[C@@H](O)[C@H](Cc2ccccc2)NC(=O)C2CCOC3(CCCC3)C2)cc1,Ki,,fluorescence,,0.016 µM
CC(C)CC(NC(=O)[C@@H](NC(=O)[C@H](Cc1ccc(O)cc1)NC(=O)OCc1ccccc1)C(C)C)[C@@H](O)CC(=O)N[C@@H](C)C(=O)N[C@H](CO)CC(C)C,IC50,,fluorescence,,1 µM
CC[C@@H](C)[C@H](NC(=O)[C@@H]1CCCN1C(=O)[C@@H](O)[C@H](Cc1ccccc1)NC(=O)[C@H](CC(N)=O)NC(=O)c1ccc2ccccc2n1)C(=O)N[C@H](C(N)=O)C(C)C,IC50,,,,<5 µM
CC(C)[C@H](NC(=O)[C@@H](N)Cc1ccccc1)C(=O)N[C@@H](Cc1ccccc1)[C@H](O)CNC[C@@H](O)[C@H](Cc1ccccc1)NC(=O)OC(C)(C)C,IC50,,HPLC,pH 5.5,<10 µM
CC(C)CC(=O)N[C@H](C(=O)N[C@H](C(=O)N[C@H]([C@@H](O)CC(=O)N[C@@H](C)C(=O)N[C@H]([C@@H](O)CC(=O)O)C(F)(F)F)C(F)(F)F)C(C)C)C(C)C,IC50,,fluorescence,,>150 µM
CSC[C@H](NC(=O)COc1cccc2ccccc12)C(=O)N[C@@H](Cc1ccccc1)[C@H](O)C(=O)N1CCC[C@H]1C(=O)NC(C)(C)C,IC50,,,,<0.05 µM
C=CCc1ccc(O)c(-c2ccc(OC)c(CC=C)c2)c1,IC50,,FRET,,1000 µM
Cc1ccc(S(=O)(=O)N(CC(C)C)[C@@H](CCCCNC(=O)N[C@@H]2c3ccccc3C[C@@H]2O)C(=O)O)cc1,Ki,,fluorescence,,0.3 µM
CC(=O)N[C@@H](Cc1cn(C(c2ccccc2)(c2ccccc2)c2ccccc2)cn1)C(=O)N[C@H](C(=O)N[C@@H](Cc1ccccc1)[C@@H](O)C(=O)N[C@H]1Cc2ccc(cc2)OCCCNC(=O)[C@H](C(C)C)NC1=O)C(C)C,IC50,,fluorescence,,0.017 µM
CC[C@H](C)[C@H](NC(=O)OC(C)(C)C)C(=O)N[C@H]1CC[C@@H](CC(=O)N[C@@H](CC(C)C)C(=O)OC)[C@@H]1O,IC50,,absorbance,,>10 µM
CC(C)C[C@H](NC(=O)[C@H](C)NC(=O)C[C@H](O)[C@H](CC(C)C)NC(=O)[C@@H](NC(=O)[C@H](Cc1ccc(O)cc1)NC(=O)OCc1ccccc1)C(C)C)[C@@H](O)CC(=O)O,IC50,,fluorescence,,0.06 µM
COc1cc2c(c(O)c1OC)-c1c(cc3c(c1OC)OCO3)[C@H](OC(C)=O)[C@H](C)[C@H](C)C2,IC50,,HPLC,,>100 µg/mL
C=CCc1ccc(O)c(-c2cc(CC=C)ccc2O)c1,IC50,,FRET,,800 µM
CC(C)C(NC[C@H](O)[C@H](Cc1ccccc1)NC(=O)[C@@H](NC(=O)[C@H](Cc1cccc2ccccc12)CS(=O)(=O)C(C)(C)C)C(C)C)C(F)(F)F,IC50,,,,0.01 µM
COC(=O)[C@H](CC(C)C)NC(=O)C[C@@H]1CC[C@H](NC(=O)[C@H](C)NC(=O)OC(C)(C)C)[C@H]1O,IC50,,absorbance,,>10 µM
COc1ccc(C2C3(CO)C4N(C(=O)Cc5ccccc5)C5C2(CO)C2N(C(=O)Cc6ccccc6)C3C4(CO)C(c3ccc(OC)cc3)C52CO)cc1,IC50,,absorbance,,>50 µM
CC(C)[C@H](NC(=O)CC(N)c1ccccc1)C(=O)N[C@@H](Cc1ccccc1)[C@H](O)CNC[C@@H](O)[C@H](Cc1ccccc1)NC(=O)OC(C)(C)C,IC50,,HPLC,pH 5.5,<10 µM
CC[C@H](C)[C@H](NC(=O)C[C@H](O)[C@H](CC(C)C)NC(=O)[C@@H](NC(=O)[C@H](Cc1ccc(O)cc1)NC(=O)OCc1ccccc1)C(C)C)C(=O)N[C@@H](Cc1ccccc1)C(=O)OC,IC50,,fluorescence,,0.1 µM
CC(C)[C@H](NC(=O)[C@H](Cc1cccc2ccccc12)CS(=O)(=O)C(C)(C)C)C(=O)N[C@@H](Cc1ccccc1)[C@@H](O)CN1C[C@@H]2CCCC[C@@H]2C[C@H]1C(F)(F)F,IC50,,,,>5 µM
CC(C)C[C@H](NC(=O)[C@H](C)NC(=O)C[C@H](O)[C@H](CC(C)C)NC(=O)[C@@H](NC(=O)[C@H](Cc1ccc(O)cc1)NC(=O)OCc1ccccc1)C(C)C)[C@@H](O)CC(N)=O,IC50,,fluorescence,,0.3 µM
Oc1cc(O)cc(Oc2c(O)cc(O)c3c2Oc2c(cc(O)c(-c4c(O)cc5c(c4O)Oc4c(Oc6cc(O)cc(O)c6)c(O)cc(O)c4O5)c2O)O3)c1,IC50,,HPLC,,81.5 µM
COC(=O)[C@H](CC(C)C)NC(=O)C[C@@H]1CC[C@@H](O)[C@@H]1NC(=O)[C@H](C)NC(=O)OC(C)(C)C,IC50,,absorbance,,>10 µM
CC(=O)N[C@@H](Cc1c[nH]c2ccccc12)C(=O)N[C@H](C(=O)N[C@@H](CC(C)C)[C@@H](O)CC(=O)N[C@@H](CC(C)C)C(=O)N[C@@H](Cc1ccccc1)C(N)=O)C(C)C,IC50,,fluorescence,,0.02 µM
CC1=CC[C@H]([C@@H](C)C2CC[C@@]3(C)C4=C(C=C5C=CC(=O)OC(C)(C)C5CC4)CC[C@]23C)OC1=O,IC50,,HPLC,,20 µg/mL
CC(C)(C)NC(=O)[C@@H]1CC2CCCCC2CN1C(=O)[C@@H](O)[C@H](Cc1ccccc1)NC(=O)[C@H](CS(C)(=O)=O)NC(=O)COc1cccc2ccccc12,IC50,,,,>0.05 µM
CC(C)(C)S(=O)(=O)C[C@@H](Cc1cccc2ccccc12)C(=O)N[C@@H](CC(N)=O)C(=O)N[C@@H](Cc1ccccc1)[C@H](O)C(O)CN1CCC[C@H]1C(F)(F)F,IC50,,,,0.01 µM
CC(C)[C@H](NC(=O)OCc1ccccc1)C(=O)N(C)[C@@H](Cc1ccccc1)[C@H](O)CNC[C@@H](O)[C@H](Cc1ccccc1)NC(=O)OC(C)(C)C,IC50,,HPLC,pH 5.5,<10 µM
CC(C)[C@H](NC(=O)[C@H](Cc1cccc2ccccc12)CS(=O)(=O)C(C)(C)C)C(=O)N[C@@H](Cc1ccccc1)[C@@H](O)CN1CCc2ccccc2[C@H]1C(F)(F)F,IC50,,,,0.01 µM
COC(=O)[C@@H](NC(=O)C[C@@H]1CC[C@@H](O)[C@@H]1NC(=O)[C@H](C)NC(=O)OC(C)(C)C)C(C)C,IC50,,absorbance,,>10 µM
COC(=O)C[C@H](O)[C@H](CC(C)C)NC(=O)[C@H](C)NC(=O)C[C@H](O)[C@H](CC(C)C)NC(=O)[C@@H](NC(=O)[C@H](Cc1c[nH]c2ccccc12)NC(=O)OCc1ccccc1)C(C)C,IC50,,fluorescence,,0.1 µM
CC(C)[C@H](NC(=O)OCc1ccccc1)C(=O)N[C@@H](Cc1ccccc1)[C@@H](O)CNC[C@H](O)[C@H](Cc1ccccc1)NC(=O)[C@@H](NC(=O)OCc1ccccc1)C(C)C,IC50,,HPLC,pH 5.5,>10 µM
CC(C)(C)NC(=O)[C@@H]1C[C@@H]2CCCC[C@@H]2CN1C[C@@H](O)[C@H](Cc1ccccc1)NC(=O)[C@@H]1CCCS(=O)(=O)C1,Ki,,fluorescence,,0.015 µM
CC[C@H](C)[C@H](NC(=O)OC(C)(C)C)C(=O)N[C@@H]1CC[C@H](CC(=O)N[C@H](C(=O)OC)C(C)C)[C@H]1O,IC50,,absorbance,,>10 µM
CC(=O)N[C@H](Cc1ccc(F)cc1)C(=O)N[C@H](C(=O)N[C@@H](Cc1ccccc1)[C@@H](O)C(=O)N[C@H]1Cc2ccc(cc2)OCCCNC(=O)[C@H](C(C)C)NC1=O)C(C)C,IC50,,fluorescence,,0.009 µM
NC(=O)C[C@H](NC(=O)[C@@H](N)Cc1ccccc1)C(=O)N[C@@H](Cc1ccccc1)[C@@H](O)C(=O)NCC1CCCCC1,IC50,,,,~1000 µM
CC(C)(C)OC(=O)N1C2C3(CO)C(c4ccccc4)C4(CO)C1C1(CO)C(c5ccccc5)C2(CO)C3N(C(=O)OC(C)(C)C)C41,Ki,,absorbance,,9.6 µM
COc1ccc(S(=O)(=O)N(CC(C)C)C[C@@H](O)[C@H](Cc2ccccc2)NC(=O)[C@H]2CCO[C@@]3(CCCO3)C2)cc1,Ki,,fluorescence,,0.0076 µM
CC(=O)N[C@@H](Cc1cnc[nH]1)C(=O)N[C@H](C(=O)N[C@@H](Cc1ccccc1)[C@@H](O)C(=O)N[C@H]1Cc2ccc(cc2)OCCCNC(=O)[C@H](C(C)C)NC1=O)C(C)C,IC50,,fluorescence,,0.018 µM
C=CCc1ccc(O)c(-c2cc(C(O)C(C)O)ccc2O)c1,IC50,,FRET,,35 µM
Nc1cccc(C(=O)N[C@H](Cc2ccccc2)C[C@H](O)[C@H](Cc2ccccc2)NC(=O)c2cccc(N)c2)c1,Ki,PR-R8Q,substrate cleavage,,0.034 µM
CC(C)(C)OC(=O)N[C@@H](Cc1ccccc1)C(=O)N[C@@H](CC(N)=O)C(=O)N[C@@H](Cc1ccccc1)[C@@H](O)C(=O)NCC1CCCCC1,IC50,,,,<1000 µM
O=C(Cc1ccccc1)N1C2C3(CO)C(c4ccccc4)C4(CO)C1C1(CO)C(c5ccccc5)C2(CO)C3N(C(=O)Cc2ccccc2)C41,IC50,,absorbance,,~50 µM
NC(=O)C[C@H](NC(=O)c1ccc2ccccc2n1)C(=O)N[C@@H](Cc1ccccc1)[C@@H](O)CN1CCC[C@H]1C(F)(F)F,IC50,,,,0.001 µM
CC[C@H](C)[C@H](NC(=O)OC(C)(C)C)C(=O)N[C@@H]1[C@H](CC(=O)N[C@@H](CC(C)C)C(=O)OC)CC[C@H]1O,IC50,,absorbance,,>10 µM

3 of the rows above, restated:

structure	measure	mutations	method	conditions	result
CC(C)(C)S(=O)(=O)C[C@@H](Cc1cccc2ccccc12)C(=O)N[C@@H](CC(N)=O)C(=O)N[C@@H](Cc1ccccc1)[C@H](O)C(O)CN1CCC[C@H]1C(F)(F)F	IC50				0.01 µM
CC(C)C[C@H](NC(=O)[C@H](C)NC(=O)C[C@H](O)[C@H](CC(C)C)NC(=O)[C@@H](NC(=O)[C@H](Cc1ccc(O)cc1)NC(=O)OCc1ccccc1)C(C)C)[C@@H](O)CC(N)=O	IC50		fluorescence		0.3 µM
C=CCc1ccc(O)c(-c2cc(C(O)C(C)O)ccc2O)c1	IC50		FRET		35 µM